Compound potency records, mixed from different reports. Data source: NIAID ChemDB in PubChem.

Shared fields: whole-cell or culture tests; species: HIV-1; read-out: inhibition

Inhibition is in % at the dose shown (toxicity tests: loss of growth or viability). Conditions beyond the fields shown may differ between rows. An empty or dashed field is not shown.

SMILES | cell line | mutations | tested at | strain | conditions | value
N#Cc1cc(Cl)cc(Oc2c(Cl)ccc3c2nnn3Cc2[nH]nc3ncccc23)c1 | MT-4 | K103N | 0.0038 µM |  |  | >95%
CC(C)CN(C[C@@H](O)[C@H](Cc1ccccc1)NC(=O)[C@@H](NC(=O)CNC(C)(C)c1ccc(F)cc1)C(C)(C)C)S(=O)(=O)c1ccc(N)cc1 | MT-2 |  | 90 µM | RF |  | <1%
CCOP(=O)(CCCn1cc(C2N=C3C(N)=NC=NC3N2C)nn1)OCC | CEM |  | 100 µM | IIIB |  | 0%
CC12CCC(C(=O)n3c1nc1ccccc13)C(C)(C)O2 | CEM + CEM-SS |  | 200 µM | RF |  | 16.3%
Fc1cccc(Cl)c1C1SCc2nc3cc4ccccc4cc3n21 | CEM + CEM-SS |  | 200 µM | RF |  | 0.41%
CC(C)CN(C[C@@H](O)[C@H](Cc1ccccc1)NC(=O)[C@@H](NC(=O)CNC(C)(C)c1cccc(F)c1)C(C)(C)C)S(=O)(=O)c1ccc2ncsc2c1 | MT-2 |  | 90 µM | RF |  | <1%
O=C(O)[C@H]1O[C@@H](Oc2cc3oc(-c4ccccc4)cc(=O)c3c(O)c2O)[C@H](O)[C@@H](O)[C@@H]1O | HOS-CD5-CCR5 + HOS |  | 400 µM | ENV(BAL31) |  | 80%
CC(C)CN(C[C@@H](O)[C@H](Cc1ccccc1)NC(=O)[C@@H](NC(=O)CNC(C)(C)c1ccccc1)C(C)(C)C)S(=O)(=O)c1ccc2ncccc2c1 | MT-2 |  | 90 µM | RF |  | <1%
CC1(c2nc3ccccc3[nH]2)CCC(C(N)=O)C(C)(C)O1 | CEM + CEM-SS |  | 0.063 µM | RF |  | 2.3%
CCOCn1c2c(c(=O)[nH]c1=O)Cc1ccccc1C2 | C8166 |  | 5 µM | IIIB |  | 37%
Fc1cccc(C2SCc3nc4cc5ccccc5cc4n32)c1 | CEM + CEM-SS |  | 200 µM | RF |  | 18.5%
CC1=NNC(N)=N/C1=C/C(Sc1ccc(Cl)cc1)c1ccc(Cl)cc1Cl | MT-2 |  | 0.35 µM | RF |  | 7.8%
CCOP(=O)(CCCC(O)n1cc(-n2c[n+](C)c(=O)[nH]c2=O)nn1)OCC | CEM |  | 100 µM | IIIB |  | 0%
CC1=NNC(N)=N/C1=C/C(Sc1ccc(Cl)cc1)c1ccc([N+](=O)[O-])cc1 | MT-2 |  | 20 µM | RF |  | 43.31%
Cc1cn([C@@H]2C[C@H](CO)N(O)C2)c(=O)[nH]c1=O |  |  | 100 µM |  |  | 0%
N#Cc1cc(Cl)cc(Oc2c(Cl)ccc3c2nnn3Cc2[nH]nc3nc(N)ccc23)c1 | MT-4 | Y181C | 0.037 µM |  |  | >95%
CCOP(=O)(OCC)C(O)n1cc(-n2ccc(=O)[nH]c2=O)nn1 | CEM |  | 100 µM | IIIB |  | 0%
CC1(c2nc3ccccc3[nH]2)CCC(CO)C(C)(C)O1 | CEM + CEM-SS |  | 0.063 µM | RF |  | 8.2%
O=c1[nH]c(=O)n([C@H]2C[C@H](CO)[C@@H](CO)S2)cc1F | MT-4 |  | 100 µg/mL |  |  | 0%
NCCNS(=O)(=O)c1cccc2cnccc12 |  |  | 16.7 µM | LAI |  | 17.5%
C[C@@H]1C[C@H](CC(=O)O)OC[C@@H]1N(C)C | 293T |  | 10 µM |  | pseudotyped | 0.7%
Cc1cc(C)cc(C[C@@H]2[C@H](O)[C@@H](O)[C@@H](Cc3ccccc3)N(Cc3ccc4[nH]nc(N)c4c3)C(=O)N2Cc2ccccc2)c1 |  |  | 0.05 µM | RF |  | 90%
N#Cc1cc(Cl)cc(Oc2cc(OCc3[nH]nc4ncccc34)ccc2Cl)c1 | MT-4 | K103N | 0.015 µM |  |  | >95%
C/C(=C(/CCO)SS/C(CCO)=C(\C)N(C=O)Cc1cnc(C)nc1N)N(C=O)Cc1cnc(C)nc1N | MOLT-4/IIIB + MOLT-4 |  | 250 µM | IIIB |  | 99%
CC(C)CN(C[C@@H](O)[C@H](Cc1ccccc1)NC(=O)[C@@H](NC(=O)CNC(C)(C)c1cc(F)cc(F)c1)C(C)(C)C)S(=O)(=O)c1ccc(N)cc1 | MT-2 |  | 90 µM | RF |  | <1%
Cc1cn([C@@H]2C[C@H](CO)N(CCC#N)C2)c(=O)[nH]c1=O |  |  | 100 µM |  |  | 0%
CC(C)CN(C[C@@H](O)[C@H](Cc1ccccc1)NC(=O)[C@@H](NC(=O)CNC(C)(C)c1ccccc1)C(C)(C)C)S(=O)(=O)c1ccc2nc(N)sc2c1 | MT-2 |  | 90 µM | RF |  | <1%
Nc1ncnc2c1ncn2Cc1cn(C(O)CP(=O)(O)O)nn1 | CEM |  | 100 µM | IIIB |  | 0%
CCOC(=O)/C=C/c1ccc(OC(=O)CCC(=O)Oc2c(C)c(C)c3c(c2C)CC[C@@](C)(CCC[C@H](C)CCC[C@H](C)CCCC(C)C)O3)cc1 | U1/HIV-1 (TNF-alpha stimulated) + U1 |  | 1 µM |  |  | 22%
CSC(C)(C)[C@H](NC(=O)CNC(C)(C)c1cccc(F)c1)C(=O)N[C@@H](Cc1ccccc1)[C@H](O)CN(CC(C)C)S(=O)(=O)c1ccc2ncccc2c1 | MT-2 |  | 90 µM | RF |  | <1%
NC(N)=NCCNS(=O)(=O)c1cccc2cnccc12 |  |  | 16.7 µM | LAI |  | 2%
Clc1cccc(Cl)c1C1SCc2nc3cc4ccccc4cc3n21 | CEM + CEM-SS |  | 200 µM | RF |  | 21.86%
Nc1ccn([C@H]2C=C(CO)[C@@H](CO)S2)c(=O)n1 | MT-4 |  | 100 µg/mL |  |  | 0%
c1ccc2[nH]c(C3CCCCO3)nc2c1 | CEM + CEM-SS |  | 6.33 µM | RF |  | 5.5%
O=CN(/C=C/c1ccc(Cl)cc1)CCNS(=O)(=O)c1cccc2cnccc12 |  |  | 16.7 µM | LAI |  | 3%
C=C1C[C@@H](CO)O[C@H]1n1cc(C)c(=O)[nH]c1=O | H9 |  | 100 µM |  |  | 0%
O=S(=O)(NCCNC/C=C/c1ccc(Br)cc1)c1cccc2cnccc12 |  |  | 16.7 µM | LAI |  | 3%
CCOP(=O)(CCCn1cc(-n2ccc(=O)[nH]c2=O)nn1)OCC | CEM |  | 100 µM | IIIB |  | 0%
Cc1cn([C@@H]2C[C@H](CO)N(C=O)C2)c(=O)[nH]c1=O |  |  | 100 µM |  |  | 0%
CCOP(=O)(OCC)C(O)n1cc(N2C=CC(NC(C)=O)NC2=O)nn1 | CEM |  | 100 µM | IIIB |  | 0%
Nc1ccn([C@H]2C[C@H](CO)[C@@H](CO)S2)c(=O)n1 | MT-4 |  | 100 µg/mL |  |  | 0%
CC(C)CN(C[C@@H](O)[C@H](Cc1ccccc1)NC(=O)[C@@H](NC(=O)[C@@H](C)NC(C)(C)c1ccccc1)C(C)(C)C)S(=O)(=O)c1ccc2nc(N)sc2c1 | MT-2 |  | 90 µM | RF |  | <1%
CCOP(=O)(CCCC(O)n1cc(N2C=CC(NC(C)=O)NC2=O)nn1)OCC | CEM |  | 100 µM | IIIB |  | 0%
CC(C)CN(C[C@@H](O)[C@H](Cc1ccccc1)NC(=O)[C@@H](NC(=O)CNC(C)(C)c1cccc(F)c1)C(C)(C)C)S(=O)(=O)c1ccc2cn[nH]c2c1 | MT-2 |  | 90 µM | RF |  | <1%
C[n+]1cn(-c2cn(C(O)CCCP(=O)(O)O)nn2)c(=O)[nH]c1=O | CEM |  | 100 µM | IIIB |  | 0%
O=S(=O)(c1cccc2cnccc12)N1CCCNCC1 |  |  | 16.7 µM | LAI |  | 37.5%